Literature values as cited in patent US20220213047A1, “CARBONIC ANHYDRASE INHIBITORS FOR TREATMENT OF NEISSERIA GONORRHOEAE INFECTION” (Purdue Research Foundation, priority 2021, published 2022).

Target: hCAII (Homo sapiens, UniProt P00918)
Settings: read-out: Kd of tracer against hCAII; same tracer; cited from earlier work

SMILES: COc1ccc2cc(C(=O)Nc3nnc(S(N)(=O)=O)s3)c(=O)oc2c1
- Kd: 65 nM
